# Measurements as given in the supplement of paper PMC9931576.
# Human monoclonal antibodies against the spike receptor-binding domain (heavy:light variable regions). IC50 against pseudoviruses bearing the spike of naturally observed variants; lower = stronger; >10 µg/ml means not reached at the top dose. No active / inactive call. The stated detection limit is 0.0005 µg/ml; values near or below 0.001 µg/ml lie at the floor of the assay.
# B1: BD56-658 (protein)
# chain 1: QLVESGGGLVKPGGSLRLSCGASGFSFSDALMSWVRQAPGKGLEWVGRIKTEIDGGTIDYAAPVKGRFSISRDDSKNMLFLQMNSLKIEDTAVYYCTTAEWELGLFFDYWGQGTLVTVSS
# chain 2: QSVLTQPPSASGTPGQRVTISCSGSSSNIGTNYVYWYQQFPGTAPKLLIYRNNQRPSGVPDRFSGSKSGTSASLAISGLRSEDEADYYCATWDDNLSGRGVFGGGTKLTVL
# B2: BD56-674 (protein)
# chain 1: QVHLVESGGGVVQPGRSLRLSCAGSGFIVSDYAVHWVRQAPGKGLEWVALMSSDESKKYFTDSVKGRFTFSRDNSKNTLYLQMNSLRPEDTAVYYCARESGFGMDILTGTGSDFDYWGQGTLVTVSS
# chain 2: DIQMTQSPSSLSASVGDRVTITCRASQTISTYLNWYQQKPGKPPKSLIYAASNLQSGVPSRFSGSGSGTDFTLTISSLQPEDFATYYCQQTYSTPITFGQGTRLEIK
# B3: BD56-671 (protein)
# chain 1: QVQLVESGGGVVQPGRSLRLSCVASGFTFSRHALHWVRQAPGKGLEWVAVISYDGSKIHYGDSARGRFTISRDNSKNTLYLQMNSLRAEDTAFYHCARDLGFCTNGVCYVKGIYDYYFYGVDVWGQGTRVTVSS
# chain 2: QSVVTQPPSASGTPGQRVTISCSGSSSNIGSYTVNWYQQLPATAPKLLIYNDNQRPSGVPDRFSGSKSGISASLAISGLQSEDEAEYYCAAWDDSLNGAWVFGGGTKLTVL
# B4: BD56-681 (protein)
# chain 1: QVQLVQSGAEVKKPGSSVKVSCKASGGTFNTYTVTWVRQAPGQGLEWMGRIIPFLLITNYAPKFQGRVTITADKSTSTAYMELSSLRSEDTAVYFCARDRGGGHCSDTSCYEDYFYYYGMDVWGQGTTVTVSS
# chain 2: SYELTQPPSVSVSPGQTVSITCSGDKLGYKYACWYQQKAGQSPVLVIYQDNKRPSGIPERFSGSNSGNTATLTISGTQTMDEADYYCQAWDSSTSVVFGGGTKLTVL
# B5: BD56-652 (protein)
# chain 1: QVQLVQSGSELKKPGASVKVSCKASGYTFTHYAINWVRQAPGQGLEWMGWISTNTGNPTYVQGFTGRFVFSLDTSVSTAYLQIRSLKAEDTAVYYCARDLSDTLLVGGFDPWGQGTLVTVSS
# chain 2: QLTQSPSSLSASLRDRVTITCRASEGISTYLAWYQQKPGKAPELLIHAASTLQSGVPSRFSGSGSGTDFTLTISSLQPEDFATYYCQQLNSYPYTFGQGTKLEIK
# B6: BD56-643 (protein)
# chain 1: EVQLVESGGALVQPGGSLRLSCAASGFTFSNYDMHWVRQVTGKGLEWVSAIGTAGDTYYRDSMKGRFTVSRENAKSSLYLQMDSLRVGDTAVYYCTRGADAYDWYFDLWGRGTLVTVSS
# chain 2: DIQMTQSPSSLSASVGDRVTITCRASQSISRYLNWYQWKPGKAPKLLIYAASSLQRGVPSRFSGSGSGTDFTLTISSLQPEDFATYYCQQSYTMPPATFGQGTKVEIK
# Target: SARS-CoV-2 Omicron BA.1 spike pseudovirus
# Assay: pseudovirus neutralization IC50; higher = weaker neutralization
# Procedure: (§1)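 Single-round VSV luciferase pseudovirus mixed with antibody dilutions for 1 h and put on Huh-7 cells for about a day; IC50 from the dose curve.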
row,Binder,pseudovirus neutralization IC50 [µg/mL]
1,B1,0.715
2,B2,1.02
3,B3,0.00654
4,B4,0.65
5,B5,> 10
6,B6,> 10

# Target: SARS-CoV-2 Omicron BA.2 spike pseudovirus
# Assay: as above
# Procedure: as §1
row,Binder,pseudovirus neutralization IC50 [µg/mL]
1,B1,0.709
2,B2,1.55
3,B3,0.00412
4,B4,0.739
5,B5,> 10
6,B6,8.08

# Target: SARS-CoV-2 Omicron BA.2.75 spike pseudovirus
# Assay: as above
# Procedure: as §1
row,Binder,pseudovirus neutralization IC50 [µg/mL]
1,B1,0.806
2,B2,1.43
3,B3,0.00536
4,B4,0.962
5,B5,> 10
6,B6,> 10

# Target: SARS-CoV-2 Omicron BA.5 spike pseudovirus
# Assay: as above
# Procedure: as §1
row,Binder,pseudovirus neutralization IC50 [µg/mL]
1,B1,0.601
2,B2,1.64
3,B3,0.0503
4,B4,0.511
5,B5,> 10
6,B6,> 10

# Target: SARS-CoV-2 Omicron BQ.1.1 spike pseudovirus
# Assay: as above
# Procedure: as §1
row,Binder,pseudovirus neutralization IC50 [µg/mL]
1,B1,1.6
2,B2,> 10
3,B3,> 10
4,B4,1.95
5,B5,> 10
6,B6,> 10

# Target: SARS-CoV-2 Omicron XBB spike pseudovirus
# Assay: as above
# Procedure: as §1
row,Binder,pseudovirus neutralization IC50 [µg/mL]
1,B1,2.47
2,B2,6.43
3,B3,> 10
4,B4,2.9
5,B5,> 10
6,B6,> 10

# Target: SARS-CoV-2 early D614G spike pseudovirus
# Assay: as above
# Procedure: as §1
row,Binder,pseudovirus neutralization IC50 [µg/mL]
1,B1,> 10
2,B2,3.04
3,B3,0.00938
4,B4,> 10
5,B5,> 10
6,B6,3.98
